Measurements: patent publication US20150285818A1, “Switchable Reporter Enzymes for Homogenous Antibody Detection” (TECHNISCHE UNIVERSITEIT EINDHOVEN, priority 2012, published 2015)

Test system: anti-HIV1-p17 antibody
Experiment: Reporter enzyme activity assay with nitrocefin and anti-HIV1-p17 antibody titration
Settings: for Kd lower than that of a single epitope peptide (Kd=42 nM): sensor Kd vs monovalent peptide Kd

B1: Abs2-2: Abs3-2 with the large epitope changed for the shorter WEKIRLR epitope; SEQ ID NO: 20 (protein)
chain: MSIQHFRVALIPFFAAFCLPVFAHHHHHHLVPRGSHPETLVKVKDAEDQLGARVGYIELDLNSGKILESFRPEERFPMMSTFKVLLCGAVLSRIDAGQEQLGRRIHYSQNDLVDYSPVTEKHLTDGMTVRELCSAAITMSDNTAANLLLTTIGGPKELTAFLHNMGDHVTRLDRWEPELNEAIPNDERDTTMPVAMATTLRKLLTGELLTLASRQQLIDWMEADKVAGPLLRSALPAGWFIADKSGAGERGSRGIIAALGPDGKPSRIVVIYTTGSQATMDERNRQIAEIGASLIKHWTSGGWEKIRLRGGSGGSGGSGGSGGSGGSGAEAAAKEAAAKEAAAKEAAAKEAAAKEAAAKAGSGGSGGSGGPQGILGQGSGGSGGSGGSGAEAAAKEAAAKEAAAKEAAAKEAAAKEAAAKAGSGGSGGSGGSGGSGGSGGWEKIRLRGGSGGSHGAGVMTGAKFTQIQFGMTRQQVLDIAGAENCETGGSFGDSIHCRGHAAGDYYAYATFGFTSAAADAKVDSKSQEKLLAPSAPTLTLAKFNQVTVGMTRAQVLATVGQGSCTTWSEYYPAYPSTAGVTLSLSCFDVDGYSSTGAYRGSAHLWFTDGVLQGKRQWDLVGEFGGWSHPQFEK
- increase of dissociation constant on changing long epitope for short WEKIRLR epitope (Abs2-2 vs Abs3-2): 635 fold

B2: Abs3-1: Abs-3 variant with E104D in β-lactamase and E31A in BLIP; SEQ ID NO: 22 (protein)
chain: MSIQHFRVALIPFFAAFCLPVFAHHHHHHLVPRGSHPETLVKVKDAEDQLGARVGYIELDLNSGKILESFRPEERFPMMSTFKVLLCGAVLSRIDAGQEQLGRRIHYSQNDLVDYSPVTEKHLTDGMTVRELCSAAITMSDNTAANLLLTTIGGPKELTAFLHNMGDHVTRLDRWEPELNEAIPNDERDTTMPVAMATTLRKLLTGELLTLASRQQLIDWMEADKVAGPLLRSALPAGWFIADKSGAGERGSRGIIAALGPDGKPSRIVVIYTTGSQATMDERNRQIAEIGASLIKHWTSGGELDRWEKIRLRPGGSGGSGGSGGSGGSGGSGAEAAAKEAAAKEAAAKEAAAKEAAAKEAAAKAGSGGSGGSGGSGGSGGSGAEAAAKEAAAKEAAAKEAAAKEAAAKEAAAKAGSGGSGGSGGSGGSGGSGGELDRWEKIRLRPGGSHGAGVMTGAKFTQIQFGMTRQQVLDIAGAENCATGGSFGDSIHCRGHAAGDYYAYATFGFTSAAADAKVDSKSQEKLLAPSAPTLTLAKFNQVTVGMTRAQVLATVGQGSCTTWSEYYPAYPSTAGVTLSLSCFDVDGYSSTGFYRGSAHLWFTDGVLQGKRQWDLVGEFGGWSHPQFEK
- Kd lower than that of a single epitope peptide (Kd=42 nM): 200 fold

B3: Abs3-2: Abs-3 variant with E104D in β-lactamase and F142A in BLIP; SEQ ID NO: 37 (protein)
chain: MSIQHFRVALIPFFAAFCLPVFAHHHHHHLVPRGSHPETLVKVKDAEDQLGARVGYIELDLNSGKILESFRPEERFPMMSTFKVLLCGAVLSRIDAGQEQLGRRIHYSQNDLVDYSPVTEKHLTDGMTVRELCSAAITMSDNTAANLLLTTIGGPKELTAFLHNMGDHVTRLDRWEPELNEAIPNDERDTTMPVAMATTLRKLLTGELLTLASRQQLIDWMEADKVAGPLLRSALPAGWFIADKSGAGERGSRGIIAALGPDGKPSRIVVIYTTGSQATMDERNRQIAEIGASLIKHWTSGGELDRWEKIRLRPGGSGGSGGSGGSGGSGGSGAEAAAKEAAAKEAAAKEAAAKEAAAKEAAAKAGSGGSGGSGGSGGSGGSGAEAAAKEAAAKEAAAKEAAAKEAAAKEAAAKAGSGGSGGSGGSGGSGGSGGELDRWEKIRLRPGGSHGAGVMTGAKFTQIQFGMTRQQVLDIAGAENCETGGSFGDSIHCRGHAAGDYYAYATFGFTSAAADAKVDSKSQEKLLAPSAPTLTLAKFNQVTVGMTRAQVLATVGQGSCTTWSEYYPAYPSTAGVTLSLSCFDVDGYSSTGAYRGSAHLWFTDGVLQGKRQWDLVGEFGGWSHPQFEK
- Kd lower than that of a single epitope peptide (Kd=42 nM): 200 fold
